Measured values taken from publication PMC4287178.

Tested on: NtrC-6xHis
Assay: EMSA
Conditions: 0-16 uM NtrC, poly(dI-dC) 50 ng/uL, BSA, 40 min at 4 C, pH not stated, recombinant protein, residues 1-470, protein details: C-terminal 6xHis, label: biotin end label, probe letters rebuilt from the primers and the genome

“CAGGATCACAAACATCCTCCGCAAACAAGTATTGCAGAGTCCCTTTGTGATCGCTTTCACGGAGCATAAAAAGGGTTATCCAAAGGTCATTGCACCAACATGGTGCTTAATGTTTCCATTGAAGCACTATATTGGTGCAACATTCACATCGTGGTGCAGCCCTTTTGCACGATGGTGCGCATGATAACGCCTTTTAGGG (double strand) [glnAP2 promoter probe]”: binds.

The exact form of at least one protein or probe is not confirmed.
